Measured values from several laboratories, pooled; numbers as filed in NIAID ChemDB.

All rows: whole-cell or culture tests; organism: HIV-1; measure: EC50

Neighbouring rows are from separate reports.

structure,strain or isolate,mutations,cells,read by,setting,value
C=C(C)[C@@H]1CC[C@]2(C(=O)NCCCCCCCC(=O)N[C@@H](CC(C)C)[C@@H](O)CC(=O)O)CC[C@]3(C)[C@H](CC[C@@H]4[C@@]5(C)CC[C@H](O)C(C)(C)[C@@H]5CC[C@]43C)[C@@H]12,LAI,,CEM + CEM-4,RT activity,,0.2 µM
CC(C)[C@H](NC(=O)[C@H](CO)NC(=O)[C@@H](N)CS)C(=O)N[C@H](C(=O)N[C@@H](CS)C(=O)NCC(=O)O)[C@@H](C)O,BaL,,PBMC(PHA STIM.) + PBMC,p24,,>1.32 µM
CN1CC(C(=O)N(CCCN2CCC(Cc3ccc(F)cc3)CC2)c2ccc(Cl)c(Cl)c2)CC1=O,JR-FL R5,,MOLT-4-CCR5+ + MOLT-4,luciferase,,0.19 µM
C#C[C@]1(COC(=O)CCCCCCCCCCCCCC)O[C@@H](n2cnc3c(N)nc(F)nc32)C[C@@H]1O,NL4-3,M184V,U373-CD4-CXCR4,,pseudotyped,0.011 µM
COc1ccc(N(C)C(=O)[C@H](Cc2cc(F)cc(F)c2)NC(=O)NS(=O)(=O)N[C@@H](Cc2cc(F)cc(F)c2)C(=O)N(C)c2ccc(OC)c(F)c2)cc1F,NL4-3,,MT-2,luciferase,,0.03 µM
CC(=O)CCC(=O)NCCCOCCOCCCNC(=O)CNC(=O)[C@H](CS)NC(=O)[C@@H](NC(=O)[C@@H](NC(=O)[C@H](CO)NC(=O)[C@@H](N)CS)C(C)C)[C@@H](C)O,IIIB,,PBMC(PHA STIM.) + PBMC,p24,,<0.66 µM
COc1ccc(N(C)C(=O)[C@H](Cc2ccccc2)NC(=O)Cn2c(=O)c(=O)n(CC(=O)N[C@@H](Cc3ccccc3)C(=O)N(C)c3ccc(OC)cc3)c3ccccc32)cc1,NL4-3,,MT-2,luciferase,,0.16 µM
C#C[C@]1(COC(=O)CC(F)(F)F)O[C@@H](n2cnc3c(N)nc(F)nc32)C[C@@H]1O,NL4-3,M184V,U373-CD4-CXCR4,,pseudotyped,0.037 µM
Nc1nccc2c1ncn2[C@@H]1C=C(CO)[C@@H](O)[C@H]1O,A018 POST-AZT,,PBMC,p24,,0.0048 µM
C#C[C@]1(COC(=O)CCCCCCCCCCCCCCCCCCC)O[C@@H](n2cnc3c(N)nc(F)nc32)C[C@@H]1O,NL4-3,M184V,U373-CD4-CXCR4,,pseudotyped,0.333 µM
Cc1cc(S(N)(=O)=O)ccc1NC(=O)COc1ccc(Cl)cc1C(=O)c1cc(F)cc(C#N)c1,HXB2,RT-P236L,HeLa + HELA CD4+,β-galactosidase,,<0.01 µM
Nc1nccc2c1ncn2[C@@H]1O[C@H](CO)[C@@H](O)[C@H]1O,A012 POST-AZT,,PBMC,p24,,0.11 µM
CCN(C(=O)[C@H](Cc1cc(F)cc(F)c1)NC(=O)NS(=O)(=O)N[C@@H](Cc1cc(F)cc(F)c1)C(=O)N(CC)c1ccc(OC(F)F)cc1)c1ccc(OC(F)F)cc1,NL4-3,,MT-2,luciferase,,0.01 µM
Cc1cc2cn[nH]c2cc1NC(=O)COc1ccc(Cl)cc1C(=O)c1cccc(C#N)c1,HXB2,RT-K103N V108I,HeLa + HELA CD4+,β-galactosidase,,<0.01 µM
COc1ccc(-n2ccnc2[C@H](Cc2ccccc2)NC(=O)NS(=O)(=O)N[C@@H](Cc2ccccc2)c2nccn2-c2ccc(OC)cc2)cc1,NL4-3,,MT-2,luciferase,,3.68 µM
CCc1cc(C#N)cc(C(=O)c2cc(Cl)ccc2OCC(=O)Nc2ccc(S(N)(=O)=O)cc2C)c1,HXB2,RT-V108I Y181C,HeLa + HELA CD4+,β-galactosidase,,<0.01 µM
Cc1cn([C@@H]2CC[C@@](CO)(N=[N+]=[N-])O2)c(=O)[nH]c1=O,LAV,,A3.01,,,>11.1 µM
Cc1cc(C#N)cc(C(=O)c2cc(Cl)ccc2OCC(=O)Nc2ccc(S(N)(=O)=O)cc2C)c1,HXB2,RT-V106A Y181C,HeLa + HELA CD4+,β-galactosidase,,<0.01 µM
C#C[C@]1(COC(=O)CCCCCCCC#CC)O[C@@H](n2cnc3c(N)nc(F)nc32)C[C@@H]1O,NL4-3,M184V,U373-CD4-CXCR4,,pseudotyped,0.013 µM
Cc1cc(C)cc(C(=O)c2cc(Cl)ccc2OCC(=O)Nc2ccc(S(N)(=O)=O)cc2C)c1,HXB2,RT-Y181C,HeLa + HELA CD4+,β-galactosidase,,<0.01 µM
C#C[C@]1(COC(=O)CC)O[C@@H](n2cnc3c(N)nc(F)nc32)C[C@@H]1O,NL4-3,M184V,U373-CD4-CXCR4,,pseudotyped,0.039 µM
Cc1cc2[nH]cnc2cc1NC(=O)COc1ccc(Cl)cc1C(=O)c1cc(F)cc(C(F)(F)F)c1,HXB2,RT-P225H,HeLa + HELA CD4+,β-galactosidase,,<0.01 µM
C#C[C@]1(COC(=O)CCCC)O[C@@H](n2cnc3c(N)nc(F)nc32)C[C@@H]1O,NL4-3,M184V,U373-CD4-CXCR4,,pseudotyped,0.019 µM
Cc1cc(S(N)(=O)=O)ccc1NC(=O)COc1ccc(Cl)cc1C(=O)c1cc(F)cc(C(F)(F)F)c1,HXB2,RT-G190A,HeLa + HELA CD4+,β-galactosidase,,<0.01 µM
C#C[C@]1(COC(=O)CCCCCC)O[C@@H](n2cnc3c(N)nc(F)nc32)C[C@@H]1O,NL4-3,M184V,U373-CD4-CXCR4,,pseudotyped,0.015 µM
CO[C@@]1(CO)O[C@@H](n2cc(C)c(=O)[nH]c2=O)C[C@@H]1O,LAV,,A3.01,,,>200 µM
C=C1CN(S(=O)(=O)c2ccc(C)cc2)CCCN(Cc2ccccc2)CCCN(S(=O)(=O)c2ccc(C)cc2)C1,IIIB,,SupT1,cytopathic effect,,1.5 µM
Cc1cn([C@H]2C=C[C@](CO)(N=[N+]=[N-])O2)c(=O)[nH]c1=O,LAV,,A3.01,RT activity,,>2.5 µM
C#C[C@]1(COC(=O)C(C)(C)C(F)(F)F)O[C@@H](n2cnc3c(N)nc(F)nc32)C[C@@H]1O,NL4-3,M184V,U373-CD4-CXCR4,,pseudotyped,0.09 µM

The first 4 rows once more:

structure	strain or isolate	mutations	cells	read by	setting	value
C=C(C)[C@@H]1CC[C@]2(C(=O)NCCCCCCCC(=O)N[C@@H](CC(C)C)[C@@H](O)CC(=O)O)CC[C@]3(C)[C@H](CC[C@@H]4[C@@]5(C)CC[C@H](O)C(C)(C)[C@@H]5CC[C@]43C)[C@@H]12	LAI		CEM + CEM-4	RT activity		0.2 µM
CC(C)[C@H](NC(=O)[C@H](CO)NC(=O)[C@@H](N)CS)C(=O)N[C@H](C(=O)N[C@@H](CS)C(=O)NCC(=O)O)[C@@H](C)O	BaL		PBMC(PHA STIM.) + PBMC	p24		>1.32 µM
CN1CC(C(=O)N(CCCN2CCC(Cc3ccc(F)cc3)CC2)c2ccc(Cl)c(Cl)c2)CC1=O	JR-FL R5		MOLT-4-CCR5+ + MOLT-4	luciferase		0.19 µM
C#C[C@]1(COC(=O)CCCCCCCCCCCCCC)O[C@@H](n2cnc3c(N)nc(F)nc32)C[C@@H]1O	NL4-3	M184V	U373-CD4-CXCR4		pseudotyped	0.011 µM

ECn is the concentration giving n% inhibition of infection, replication or growth. Blank or dashed fields: not listed here.